## Share of PSTVd loop 15 variants by leaf site

Data from the supplement of Wu et al. 2024, doi:10.1371/journal.ppat.1012142.

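A pool of all variants was put on leaves of three Nicotiana benthamiana plants. Progeny were sequenced from the inoculated region (day 5), the margin of the inoculated leaf (day 10) and systemic leaves (day 12).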

Region: loop 15 of PSTVd (intermediate strain), upper and lower strand joined, each 5' to 3', the first 7 letters being the upper strand, closing pairs included. Wild type: GGAAACCGCUACUAC. Varied positions (N): GGAAACCGNNNNNNC.

Values are reads per thousand in the sample; higher means more abundant, 0 means not found.
Each site shows the three plants.
"Pool" is the share in the plasmid pool used as inoculum, on the same scale.
The inoculated region was read from the minus strand, the other sites from the plus strand.
For reference, wild type rose from 33.9 per thousand in the pool to 202, 200, 159 (inoculated region), 724, 746, 710 (leaf margin) and 856, 883, 880 (systemic leaves).
Sequences that differ at fixed positions probably stem from PCR or sequencing errors, and defective variants can be carried along by functional ones.
Samples held 43,870 to 66,106 reads, so the smallest values rest on one or two reads.

sequence	pool	inoculated region	leaf margin	systemic leaves
GGAAACCGAUGCUUC	0.288	0.0983 0.0964 0.114	0.0323 0 0	0 0 0
GGAAACCGAUGGAAC	0.192	0.311 0.337 0.324	0.0970 0.111 0.220	0.0483 0 0
GGAAACCGAUGGACC	0.176	0.0491 0.0643 0.0952	0 0 0.0200	0 0 0
GGAAACCGAUGGAGC	0.272	0.0655 0.0803 0.0952	0.0323 0 0.0200	0 0 0
GGAAACCGAUGGAUC	0.256	0.0491 0.0964 0.0190	0 0 0	0 0 0
GGAAACCGAUGGCAC	0.0640	0.0819 0.0482 0.0952	0 0 0	0 0 0
GGAAACCGAUGGCCC	0.144	0.115 0.0964 0.114	0 0 0.0200	0 0 0
GGAAACCGAUGGCGC	0.176	0.131 0.0482 0.114	0.0323 0 0	0 0 0
GGAAACCGAUGGCUC	0.192	0.115 0.0643 0.0762	0.0162 0 0	0 0 0
GGAAACCGAUGGGAC	0.240	0.0655 0.145 0.0571	0 0.0223 0.0200	0 0 0.0228
GGAAACCGAUGGGCC	0.160	0.164 0.0643 0.114	0 0 0.0401	0 0 0
GGAAACCGAUGGGGC	0.208	0.147 0.0964 0.0381	0 0 0.0601	0 0 0
GGAAACCGAUGGGUC	0.208	0.0983 0.0964 0.0762	0 0.0223 0.0200	0.0161 0 0
GGAAACCGAUGGUAC	0.224	0.328 0.386 0.324	0.0970 0.0445 0.0801	0.0161 0.0303 0.0912
GGAAACCGAUGGUCC	0.240	0.147 0.0803 0.0952	0 0 0	0 0 0
GGAAACCGAUGGUGC	0.192	0.229 0.177 0.305	0.162 0.0223 0.240	0.0322 0.0605 0.114
GGAAACCGAUGGUUC	0.240	0.311 0.321 0.286	0.0808 0.0445 0.160	0.0161 0.0303 0.0456
GGAAACCGAUGUAAC	0.304	0.0819 0.0321 0.0571	0.0162 0.0223 0.0401	0.0161 0 0
GGAAACCGAUGUACC	0.176	0.197 0.112 0.114	0 0.0223 0.0200	0 0 0
GGAAACCGAUGUAGC	0.192	0.0491 0.161 0.0571	0.0323 0 0.0200	0 0 0
GGAAACCGAUGUAUC	0.288	0.164 0.0482 0.133	0.0323 0 0.0200	0 0 0
GGAAACCGAUGUCAC	0.256	0.0819 0.0964 0.0762	0 0.0223 0.0401	0.0161 0 0
GGAAACCGAUGUCCC	0.144	0.115 0.0482 0.133	0 0.0223 0.0200	0 0 0
GGAAACCGAUGUCGC	0.256	0.0491 0.177 0.0571	0.0162 0.0223 0	0 0 0
GGAAACCGAUGUCUC	0.272	0.0491 0.129 0.114	0.0162 0.0445 0	0 0 0
GGAAACCGAUGUGAC	0.272	0.0819 0.161 0.0190	0.0162 0 0.0200	0 0 0
GGAAACCGAUGUGCC	0.240	0.0819 0.0964 0.0571	0 0 0	0 0 0
GGAAACCGAUGUGGC	0.272	0.0819 0.0643 0.0762	0 0.0223 0.0200	0 0 0
GGAAACCGAUGUGUC	0.192	0.0819 0.0964 0.0762	0 0 0.0200	0 0 0
GGAAACCGAUGUUAC	0.256	0.213 0.289 0.343	0.0323 0.0891 0.180	0.0483 0.106 0.0912
GGAAACCGAUGUUCC	0.208	0.115 0.145 0.0381	0.0162 0.0223 0.0401	0 0 0
GGAAACCGAUGUUGC	0.208	0.164 0.0482 0.0952	0 0 0	0 0 0
GGAAACCGAUGUUUC	0.192	0.0491 0.177 0.190	0.0162 0 0.0200	0 0 0
GGAAACCGAUUAAAC	0.160	0.0655 0.0643 0.0762	0 0 0	0 0 0
GGAAACCGAUUAACC	0.256	0.0983 0.0482 0.152	0.0162 0.0223 0	0.0322 0 0
GGAAACCGAUUAAGC	0.272	0.229 0.225 0.190	0.0162 0 0.0401	0.0322 0 0
GGAAACCGAUUAAUC	0.144	0.115 0.0643 0.0381	0 0.0223 0.0200	0 0 0
GGAAACCGAUUACAC	0.272	0.0164 0.0964 0.0571	0 0 0	0 0 0
GGAAACCGAUUACCC	0.112	0.0983 0.0482 0.0381	0 0 0.0200	0 0 0
GGAAACCGAUUACGC	0.224	0.0655 0.112 0.171	0 0 0.0601	0 0 0
GGAAACCGAUUACUC	0.176	0.147 0.0964 0.171	0 0 0.0601	0 0 0
GGAAACCGAUUAGAC	0.176	0.131 0.0643 0.0762	0 0.0223 0.0200	0 0 0
GGAAACCGAUUAGCC	0.224	0.164 0.112 0.0571	0 0 0.0200	0 0 0.0228
GGAAACCGAUUAGGC	0.320	0.197 0.193 0.114	0 0 0.0200	0 0 0
GGAAACCGAUUAGUC	0.224	0.328 0.273 0.152	1.10 0 0.0200	0.0161 0 0.0228
GGAAACCGAUUAUAC	0.192	0.197 0.369 0.362	0.0970 0.178 0.0801	0.0161 0.0908 0.205
GGAAACCGAUUAUCC	0.336	0.0164 0.129 0.152	0 0 0.0801	0 0 0
GGAAACCGAUUAUGC	0.176	0.0328 0.112 0.0762	0.0323 0.0223 0.0200	0 0 0
GGAAACCGAUUAUUC	0.240	0.262 0.353 0.647	0.113 0.0445 0.140	0.0322 0.0151 0
GGAAACCGAUUCAAC	0.224	0.0983 0.0803 0.0571	0 0 0.0200	0 0 0
GGAAACCGAUUCACC	0.256	0.0819 0.177 0.152	0.0162 0 0.0401	0 0 0
GGAAACCGAUUCAGC	0.0800	0.180 0.0643 0.0571	0.0162 0.0445 0	0 0 0
GGAAACCGAUUCAUC	0.224	0.115 0.112 0.0190	0 0 0	0 0 0

Extract of 4 entries:

GGAAACCGAUGGACC (pool 0.176) gave inoculated region 0.0491 0.0643 0.0952; leaf margin 0 0 0.0200; systemic leaves 0 0 0.
GGAAACCGAUGUCUC (pool 0.272) gave inoculated region 0.0491 0.129 0.114; leaf margin 0.0162 0.0445 0; systemic leaves 0 0 0.
GGAAACCGAUGGGGC (pool 0.208) gave inoculated region 0.147 0.0964 0.0381; leaf margin 0 0 0.0601; systemic leaves 0 0 0.
GGAAACCGAUGGAUC (pool 0.256) gave inoculated region 0.0491 0.0964 0.0190; leaf margin 0 0 0; systemic leaves 0 0 0.